Pooled drug test results. Numbers come from NIAID ChemDB, via PubChem.

Shared fields: whole-cell or culture tests; organism: Aspergillus niger; method: broth dilution; measure: MIC

Conditions beyond the fields shown may differ between rows.

compound	strain	value
Clc1ccc([Se][Se]c2ccc(Cl)cc2)cc1		>64 µg/mL
CNc1ccc(C(=O)CC(O)CC[C@H](C)[C@H]2OC(=O)C[C@H](O)CC(=O)CC(O)CC(O)CC(O)CC(O)C[C@]3(O)C[C@H](O)[C@@H](C(=O)NCCN(C)C)[C@H](C[C@@H](O[C@@H]4OC(C)[C@@H](O)[C@H](NC(=O)CN(C)C)[C@@H]4O)/C=C/C=C/C=C/C=C/C=C/C=C/C=C/[C@@H]2C)O3)cc1.O=C1O[C@H]([C@@H](O)CO)C(O)=C1O.O=C1O[C@H]([C@@H](O)CO)C(O)=C1O	TIMM 2814	0.0625 µg/mL
Cc1ccc(N2NOC(=O)C2S(=O)(=O)Nc2nc(-c3ccc(Cl)cc3)cs2)cc1	MTCC 282	250 µg/mL
FC(F)(F)c1cc(COc2cccc3cccnc23)cc(C(F)(F)F)c1		>100 µg/mL
C[C@@H]1[C@H](O)[C@@H](C)/C=C/C=C/C=C/C=C/C=C/C=C/C=C/[C@H](O[C@@H]2O[C@H](C)[C@@H](O)[C@H](N)[C@@H]2O)C[C@@H]2O[C@](O)(C[C@@H](O)[C@H](O)CC[C@@H](O)C[C@@H](O)C[C@@H](O)CC(=O)O[C@H]1C)C[C@H](O)[C@H]2C(=O)O	ATCC 16404	2 µg/mL
CC(C)=CCC/C(C)=C/CO	IOA-3	144 µg/mL
CCC(C)n1ncn(-c2ccc(N3CCN(c4ccc(OC[C@H]5CO[C@](Cn6cncn6)(c6ccc(Cl)cc6Cl)O5)cc4)CC3)cc2)c1=O	ATCC 6275	100 µg/mL
N#CC(O)c1ccccc1	A420	750 µg/mL
Cc1ccc(N2NOC(=O)C2S(=O)(=O)Nc2nc(-c3ccc(F)cc3F)cs2)cc1	MTCC 282	200 µg/mL
C[C@@H]1[C@H](O)[C@@H](C)/C=C/C=C/CC/C=C/C=C/C=C/C=C/C(O[C@H]2O[C@H](C)[C@@H](O)[C@H](N)[C@@H]2O)CC2O[C@](O)(CC(O)C(O)CCC(O)CC(O)CC(O)CC(=O)O[C@H]1C)CC(O)C2C(=O)O	MTCC 282	100 µg/mL
O=Cc1c(O)ccc2ccc(=O)oc12		15000 µM
Cc1ccc(N2NOC(=O)C2S(=O)(=O)Nc2nc3ccc(C)cc3s2)cc1	MTCC 282	1000 µg/mL
Brc1cccc(COc2cccc3cccnc23)c1		3.125 µg/mL
CC(C)=CCOc1ccc2c(c1C)C(=O)c1ccccc1C2=O	Standard strain	62.5 µg/mL
CC(=Nc1cccc(Br)c1)c1cc(C(C)=Nc2cccc(Br)c2)c(O)cc1O	MTCC 282	100 µg/mL
Clc1ccc(COc2cccc3cccnc23)cc1		>100 µg/mL
C[C@@H]1[C@H](O)[C@@H](C)/C=C/C=C/CC/C=C/C=C/C=C/C=C/C(O[C@H]2O[C@H](C)[C@@H](O)[C@H](N)[C@@H]2O)CC2O[C@](O)(CC(O)C(O)CCC(O)CC(O)CC(O)CC(=O)O[C@H]1C)CC(O)C2C(=O)O	MTCC 282	100 µg/mL
O=C1c2cc(CO)cc(O)c2C(=O)c2cc(O)cc(O)c21	MTCC 1344	32.25 µg/mL
Cc1ccc(N2NOC(=O)C2S(=O)(=O)Nc2nc(-c3ccc(Br)cc3)cs2)cc1	MTCC 282	250 µg/mL
C[C@H]1[C@H](O)[C@@H](C)/C=C/C=C/C=C/C=C/C=C/C=C/C=C/[C@H](O[C@@H]2O[C@H](C)[C@@H](O)[C@H](N)[C@@H]2O)C[C@@H]2O[C@](O)(C[C@@H](O)C[C@@H](O)CC[C@H](O)[C@@H](O)C[C@@H](O)CC(=O)O[C@H]1C)C[C@H](O)[C@H]2C(=O)O	ITCC 5405	1.95 µg/mL
Brc1ccccc1COc1cccc2cccnc12		>100 µg/mL
CC(C)=CCC/C(C)=C/CO	IOA-3	144 µg/mL
Fc1ccc(COc2cccc3cccnc23)cc1		12.5 µg/mL
Cc1ccc(N2NOC(=O)C2S(=O)(=O)Nc2nc3ccc(Cl)cc3s2)cc1	MTCC 282	200 µg/mL
c1ccc([Se][Se]c2ccccc2)cc1		8–32 µg/mL

The last 4 rows once more:

compound | strain | value
CC(C)=CCC/C(C)=C/CO | IOA-3 | 144 µg/mL
Fc1ccc(COc2cccc3cccnc23)cc1 |  | 12.5 µg/mL
Cc1ccc(N2NOC(=O)C2S(=O)(=O)Nc2nc3ccc(Cl)cc3s2)cc1 | MTCC 282 | 200 µg/mL
c1ccc([Se][Se]c2ccccc2)cc1 |  | 8–32 µg/mL

Two numbers with a dash give a range or band. An empty or dashed field is not shown.